Patent publication US6051389A, “Enzyme sensor” (Radiometer Medical A/S, priority 1996, dated 2000)
Where a name gives a salt, the structure may show the parent alone.

Test system: lactate oxidase
Test: Enzyme Stability Test: oxalate as stabilising agent for lactate oxidase in S4932 rinse solution (Example 5)
Type: biochemical, Pediococcus
Description: Colorimetric lactate oxidase assay
The formation of H2 O2 is determined in a peroxidase (POD) assay system where a quinonimine dye is formed. The amount of formed quinonimine dye is determined spectrophotometically at 490 nm.
100 μL of Reagent A is added to a well of a microtiterplate (Immunoplate, Nunc, Roskilde, Denmark). The colour reaction is started by adding 100 μL of the Enzyme Solution. Immediately afterwards, the microtiterplate is placed in the plate-holder of a THERMOmax incubator (Molecular Devices, Menlo Park, Calif., USA) pre-set to: 37° C., kinetic mode, lag-time 5 min., reading time 15 min., and automix.
The enzymatic activity of lactate oxidase (and also other enzymes) is decreasing exponentially. Therefore, the half-life period (t1/2) for the enzymatic activity will be independent of the initial concentration, and, thus, t1/2 is an excellent expression for the stability of an enzyme under various conditions.
The enzymatic activity is determined (as described in the Enzyme Activity Test above) for the enzyme composition in question at least four times over a relevant period, e.g. every day for at least four days (day 0 to day 3). t1/2 is then calculated following standard mathematical methods.
A solution of 0.04 U/mL lactate oxidase in S4932 rinse solution (Radiometer Medical A/S, Copenhagen, Denmark) was prepared. Disodium oxalate corresponding to a total concentration of 1, 2, 4, 8, and 16 mM of oxalate was added. The enzymatic activity of the solutions was determined five times over a period of 13 days. The enzymatic stability of these solutions was compared with the enzymatic stability of a solution without oxalate.

Structure (SMILES): O=C(O)C(=O)O [Oxalate, disodium oxalate]
- t1/2 of the enzymatic activity of lactate oxidase (oxalate 1 mM): 21.0 days
- t1/2 of the enzymatic activity of lactate oxidase (oxalate 2 mM): 20.2 days
- t1/2 of the enzymatic activity of lactate oxidase (oxalate 4 mM): 31.2 days
- t1/2 of the enzymatic activity of lactate oxidase (oxalate 8 mM): 36.5 days
- t1/2 of the enzymatic activity of lactate oxidase (oxalate 16 mM): 45.6 days
- stability (quoted as t1/2) versus solution without oxalate (oxalate 16 mM, highest concentration): tripled
